What was measured:
Bacillus anthracis [1] = test: Antimicrobial activity against Bacillus anthracis A0462 assessed as change in fluorescence threshold cycle at. 03 ug/ml after 4 hrs by real-time PCR viability assay relative to control
Bacillus anthracis [2] = test: Antimicrobial activity against Bacillus anthracis A03768 assessed as change in fluorescence threshold cycle at. 03 ug/ml after 4 hrs by real-time PCR viability assay relative to control
Bacillus anthracis [3] = test: Antimicrobial activity against Bacillus anthracis A0102 assessed as change in fluorescence threshold cycle at 0.015 ug/ml after 4 hrs by real-time PCR viability assay relative to control
Bacillus anthracis [4] = test: Antimicrobial activity against Bacillus anthracis A0248 assessed as change in fluorescence threshold cycle at 0.015 ug/ml after 4 hrs by real-time PCR viability assay relative to control
Bacillus anthracis [5] = test: Antimicrobial activity against Bacillus anthracis A0462 assessed as change in fluorescence threshold cycle at 0.015 ug/ml after 4 hrs by real-time PCR viability assay relative to control
Bacillus anthracis [6] = test: Antimicrobial activity against Bacillus anthracis A0193 assessed as change in fluorescence threshold cycle at 0.015 ug/ml after 4 hrs by real-time PCR viability assay relative to control
Bacillus anthracis [7] = test: Antimicrobial activity against Bacillus anthracis A0102 assessed as change in fluorescence threshold cycle at 4 ug/ml after 4 hrs by real-time PCR viability assay relative to control
Bacillus anthracis [8] = test: Antimicrobial activity against Bacillus anthracis A0419 assessed as change in fluorescence threshold cycle at 32 ug/ml after 4 hrs by real-time PCR viability assay relative to control
Bacillus anthracis [9] = test: Antimicrobial activity against Bacillus anthracis A0462 assessed as change in fluorescence threshold cycle at 32 ug/ml after 4 hrs by real-time PCR viability assay relative to control
Bacillus anthracis [10] = test: Antimicrobial activity against Bacillus anthracis A0465 assessed as change in fluorescence threshold cycle at 32 ug/ml after 4 hrs by real-time PCR viability assay relative to control
Bacillus anthracis [11] = test: Antimicrobial activity against Bacillus anthracis A0188 assessed as change in fluorescence threshold cycle at 64 ug/ml after 4 hrs by real-time PCR viability assay relative to control
Bacillus anthracis [12] = test: Antimicrobial activity against Bacillus anthracis A0102 assessed as change in fluorescence threshold cycle at 64 ug/ml after 4 hrs by real-time PCR viability assay relative to control
Bacillus anthracis [13] = test: Antimicrobial activity against Bacillus anthracis A03768 assessed as change in fluorescence threshold cycle at 32 ug/ml after 4 hrs by real-time PCR viability assay relative to control

Structure (SMILES)	deltaCT (Bacillus anthracis [1])	deltaCT (Bacillus anthracis [2])	deltaCT (Bacillus anthracis [3])	deltaCT (Bacillus anthracis [4])	deltaCT (Bacillus anthracis [5])	deltaCT (Bacillus anthracis [6])	deltaCT (Bacillus anthracis [7])	deltaCT (Bacillus anthracis [8])	deltaCT (Bacillus anthracis [9])	deltaCT (Bacillus anthracis [10])	deltaCT (Bacillus anthracis [11])	deltaCT (Bacillus anthracis [12])	deltaCT (Bacillus anthracis [13])
O=C(O)c1cn(C2CC2)c2cc(N3CCNCC3)c(F)cc2c1=O [CIPROFLOXACIN]	8.21	7.83	1.95	8.21	8.63	2.33	–	–	–	–	–	–	–
C[C@H]1c2cccc(O)c2C(=O)C2=C(O)[C@]3(O)C(=O)C(C(N)=O)=C(O)[C@@H](N(C)C)[C@@H]3[C@@H](O)[C@@H]21.O [DOXYCYCLINE]	–	–	–	–	–	–	9.46	7.61	5.91	6.57	8.09	7	7.24

— ChEMBL document CHEMBL1275243 (2010)
